Experimental data published in publication PMC7990224 (PLoS Pathogens, 2021).

System: SARS-CoV-2 GFP/ΔN trVLP
Format: cell-based

B1: IFN-β: type I interferon (Sino Bioligical, 10704-HNAS-5) (protein, UniProt P01574 22-187, looked up)
Interferon beta: MSYNLLGFLQRSSNFQCQKLLWQLNGRLEYCLKDRMNFDIPEEIKQLQQFQKEDAALTIYEMLQNIFAIFRQDSSSTGWNETIVENLLANVYHQINHLKTVLEEKLEKEDFTRGKLMSSLHLKRYYGRILHYLKAKEYSHCAWTIVRVEILRNFYFINRLTGYLRN
reduction of the GFP fluorescence: 60%
